## HIV-1 5' UTR: effect of mutations on RNA dimer formation

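Randomly mutated transcripts starting with one, two or three G (1G, 2G, 3G), capped or uncapped, were folded for 30 min at 37 °C. High salt was 300 mM KCl and 5 mM MgCl2, low salt 40 mM KCl and 0.1 mM MgCl2; monomer and dimer were parted on a native gel. Kdimer compares mutation frequencies in monomer and dimer, corrected for sequencing errors.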

RNA: 5' end of the HIV-1 NL4-3 genome, made in vitro. Positions 1-437 read:
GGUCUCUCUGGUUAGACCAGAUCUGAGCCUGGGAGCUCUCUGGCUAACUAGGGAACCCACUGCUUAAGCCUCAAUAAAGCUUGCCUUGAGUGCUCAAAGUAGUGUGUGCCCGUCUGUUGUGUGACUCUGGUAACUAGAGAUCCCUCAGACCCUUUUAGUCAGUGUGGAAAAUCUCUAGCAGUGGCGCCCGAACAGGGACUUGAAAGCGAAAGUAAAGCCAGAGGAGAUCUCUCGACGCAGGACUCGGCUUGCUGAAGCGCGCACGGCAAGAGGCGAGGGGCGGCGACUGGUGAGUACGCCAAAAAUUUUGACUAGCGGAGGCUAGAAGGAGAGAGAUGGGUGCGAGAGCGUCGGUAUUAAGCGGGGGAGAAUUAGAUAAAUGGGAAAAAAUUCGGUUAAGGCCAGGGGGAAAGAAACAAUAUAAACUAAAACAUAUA

Values are log2 Kdimer, the median over the changes at each position: higher means that changes there hinder dimer formation, below 0 that they favour it. One numbering serves 1G, 2G and 3G. A position is written with its base.

| position | 1G capped high-salt | 1G capped low-salt | 1G uncapped high-salt | 1G uncapped low-salt |
|---|---|---|---|---|
| G292 | -0.03 | -0.31 | 0.01 | -0.12 |
| A293 | -0.23 | -0.21 | 0.07 | -0.28 |
| G294 | -0.48 | -0.64 | -0.20 | -0.70 |
| U295 | -0.29 | -0.66 | -0.10 | -0.74 |
| A296 | 0.86 | 0.21 | 0.83 | 0.14 |
| C297 | -0.25 | -0.12 | 0.20 | -0.04 |
| G298 | -0.64 | -0.49 | -0.50 | -0.53 |
| C299 | -0.38 | -0.62 | -0.09 | -0.52 |
| C300 | -0.42 | -0.63 | -0.14 | -0.47 |
| A301 | 0.29 | 0.46 | 0.44 | 0.32 |
| A302 | -0.08 | -0.24 | 0.02 | -0.21 |
| A303 | -0.05 | 0.02 | 0.03 | 0.17 |
| A304 | 0.04 | 0.04 | 0.07 | 0.11 |
| A305 | -0.15 | -0.06 | -0.15 | -0.18 |
| U306 | 0.02 | -0.05 | 0.14 | -0.02 |
| U307 | 0.12 | -0.13 | 0.16 | 0.02 |
| U308 | 0.14 | -0.11 | 0.15 | -0.04 |
| U309 | 0.13 | 0.05 | 0.02 | 0.05 |
| G310 | 0.16 | -0.05 | -0.09 | -0.09 |
| A311 | 0.36 | 0.93 | 0.55 | 0.75 |
| C312 | 0.20 | 0.14 | 0.21 | 0.23 |
| U313 | 0.79 | 1.23 | 1.06 | 1.63 |
| A314 | 0.21 | -0.21 | 0.42 | -0.21 |
| G315 | 0.12 | 0.34 | 0.26 | 0.20 |
| C316 | -0.02 | 0.32 | 0.07 | 0.37 |
| G317 | 0.19 | 0.19 | 0.20 | 0.12 |
| G318 | 0.06 | -0.12 | -0.01 | 0.02 |
| A319 | 0.13 | 0.12 | 0.13 | 0.05 |
| G320 | 0.05 | -0.19 | -0.07 | -0.13 |
| G321 | 0.28 | 0.67 | 0.55 | 0.75 |
| C322 | 0.20 | 0.48 | 0.50 | 0.47 |
| U323 | 0.65 | 0.78 | 0.69 | 0.42 |
| A324 | 0.26 | 0.67 | 0.55 | 0.63 |
| G325 | 0.21 | 0.55 | 0.48 | 0.50 |

Data from the supplement of Ye et al. 2022, doi:10.1038/s41594-022-00746-2.